PubChem BioAssay AID1259414 | Drosophila RNAi Screening Center, 2018

Test: 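Host factors increasing or decreasing Wolbachia levels in cultured fly cells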 (primary screen)
Cell system: Drosophila JW18 cells infected with Wolbachia
Reagents: long dsRNA against Drosophila genes, 0.25 µg dsRNA per well of a 384-well plate
Duration: 5 days
Conditions: cells persistently infected with Wolbachia before knock-down; no added drug
Read-out: 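Automated imaging of bacterial rRNA staining divided by host cell count, reported as plate-normalised robust z-score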
Scale: Wolbachia per cell robust z: higher = more Wolbachia per host cell than the plate typical
Hit rule: 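Hit when robust z is 1.5 or more, or -1.5 or less, in at least two of three replicates; excludes dsRNAs with several or no targets, genes not expressed in JW18 and well A1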
In all, the deposit lists about 24,000 reagents; this is an unselected part of those with a known target gene and a result. Of all reagents, about 1,210 (5%) were called active. 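Inactive calls also include excluded dsRNAs with several or no targets, genes unexpressed in JW18, and well A1, regardless of score.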 The numbers tell different reagents against one gene apart.

Cnb (Centrobin) showed Wolbachia per cell robust z, rep 1 = 0.498; Wolbachia per cell robust z, rep 2 = 0.567; Wolbachia per cell robust z, rep 3 = -0.788; inactive. For CG9471 #1 the deposit lists Wolbachia per cell robust z, rep 1 = -5.36; Wolbachia per cell robust z, rep 2 = -0.309; Wolbachia per cell robust z, rep 3 = -4.68; active. For CG9471 #2, the entry reads Wolbachia per cell robust z, rep 1 = 2.22; Wolbachia per cell robust z, rep 2 = 1.21; Wolbachia per cell robust z, rep 3 = 1.11; inactive. PIG-C (Phosphatidylinositol glycan anchor biosynthesis class C) gave Wolbachia per cell robust z, rep 1 = 0.925; Wolbachia per cell robust z, rep 2 = -4.48; Wolbachia per cell robust z, rep 3 = 0.342; inactive. Silencing of Tmtc2 (Transmembrane O-mannosyltransferase targeting cadherins 2) came out at: Wolbachia per cell robust z, rep 1 = 1.14; Wolbachia per cell robust z, rep 2 = 1.79; Wolbachia per cell robust z, rep 3 = 0.0878; inactive. Depletion of PTP-ER (Protein tyrosine phosphatase-ERK/Enhancer of Ras1) #1 came out at: Wolbachia per cell robust z, rep 1 = 1.12; Wolbachia per cell robust z, rep 2 = -7.05; Wolbachia per cell robust z, rep 3 = -0.956; inactive.

Depletion of PTP-ER (Protein tyrosine phosphatase-ERK/Enhancer of Ras1) #2 resulted in: Wolbachia per cell robust z, rep 1 = 0.823; Wolbachia per cell robust z, rep 2 = 2.28; Wolbachia per cell robust z, rep 3 = 1.15; inactive. Depletion of PTP-ER (Protein tyrosine phosphatase-ERK/Enhancer of Ras1) #3 resulted in: Wolbachia per cell robust z, rep 1 = -0.602; Wolbachia per cell robust z, rep 2 = 0.567; Wolbachia per cell robust z, rep 3 = 0.491; inactive. After knock-down of CG31267, the record shows Wolbachia per cell robust z, rep 1 = -2.81; Wolbachia per cell robust z, rep 2 = -7.14; Wolbachia per cell robust z, rep 3 = 0.0383; inactive. Against 5-HT2A (5-hydroxytryptamine (serotonin) receptor 2A), the values are Wolbachia per cell robust z, rep 1 = 0.155; Wolbachia per cell robust z, rep 2 = 0.36; Wolbachia per cell robust z, rep 3 = -0.742; inactive. After knock-down of CCT4 (Chaperonin containing TCP1 subunit 4) #1 the results were Wolbachia per cell robust z, rep 1 = 1.38; Wolbachia per cell robust z, rep 2 = 0.147; Wolbachia per cell robust z, rep 3 = 1.25; inactive. After knock-down of CCT4 (Chaperonin containing TCP1 subunit 4) #2, the screen gave Wolbachia per cell robust z, rep 1 = 0.963; Wolbachia per cell robust z, rep 2 = 0.973; Wolbachia per cell robust z, rep 3 = 0.952; inactive.

For CG15459 #1 the deposit lists Wolbachia per cell robust z, rep 1 = 0.304; Wolbachia per cell robust z, rep 2 = -6.37; Wolbachia per cell robust z, rep 3 = -2.28; inactive. For CG15459 #2, the entry reads Wolbachia per cell robust z, rep 1 = 0.391; Wolbachia per cell robust z, rep 2 = 0.488; Wolbachia per cell robust z, rep 3 = 1.22; inactive. Against CG15459 #3 the deposit lists Wolbachia per cell robust z, rep 1 = 0.0577; Wolbachia per cell robust z, rep 2 = -0.217; Wolbachia per cell robust z, rep 3 = 0.546; inactive. Depletion of Mipp1 (Multiple inositol polyphosphate phosphatase 1) came out at: Wolbachia per cell robust z, rep 1 = 0.563; Wolbachia per cell robust z, rep 2 = -1.83; Wolbachia per cell robust z, rep 3 = -1.77; inactive. Akr1B (Aldo-keto reductase 1B) scored Wolbachia per cell robust z, rep 1 = -0.131; Wolbachia per cell robust z, rep 2 = -7.67; Wolbachia per cell robust z, rep 3 = 0.244; inactive. After knock-down of CG42716 the results were Wolbachia per cell robust z, rep 1 = -2.02; Wolbachia per cell robust z, rep 2 = -0.162; Wolbachia per cell robust z, rep 3 = -0.851; inactive.

Silencing of Pex19 (Peroxin 19) gave: Wolbachia per cell robust z, rep 1 = -0.651; Wolbachia per cell robust z, rep 2 = -10.4; Wolbachia per cell robust z, rep 3 = -0.573; inactive. After knock-down of CG32301 the results were Wolbachia per cell robust z, rep 1 = -3.2; Wolbachia per cell robust z, rep 2 = 0.377; Wolbachia per cell robust z, rep 3 = 0.0558; inactive. After knock-down of CG12155 the results were Wolbachia per cell robust z, rep 1 = 0.868; Wolbachia per cell robust z, rep 2 = 0.46; Wolbachia per cell robust z, rep 3 = -1.36; inactive. For CG14983 #1 the deposit lists Wolbachia per cell robust z, rep 1 = -0.816; Wolbachia per cell robust z, rep 2 = -1.13; Wolbachia per cell robust z, rep 3 = -1.65; inactive. CG14983 #2 gave Wolbachia per cell robust z, rep 1 = 0.352; Wolbachia per cell robust z, rep 2 = 0.433; Wolbachia per cell robust z, rep 3 = 1.95; inactive. After knock-down of cac (cacophony) #1 the results were Wolbachia per cell robust z, rep 1 = -0.239; Wolbachia per cell robust z, rep 2 = -3.28; Wolbachia per cell robust z, rep 3 = 0.378; inactive.

After knock-down of cac (cacophony) #2 the results were Wolbachia per cell robust z, rep 1 = -4.86; Wolbachia per cell robust z, rep 2 = 0.0322; Wolbachia per cell robust z, rep 3 = -0.544; inactive. Against cac (cacophony) #3, the values are Wolbachia per cell robust z, rep 1 = 0.284; Wolbachia per cell robust z, rep 2 = -0.451; Wolbachia per cell robust z, rep 3 = 0.231; inactive.
